This is an account of results in ChEMBL document CHEMBL1131600 (J Med Chem, 1998).

pIC50: −log10 of the molar value.

The assay has as its system Plasmodium falciparum. The assay can be described thus: In vitro antimalarial activity against chloroquine-sensitive Plasmodium falciparum NF54.

As to `CO[C@H]1O[C@]2(C)CC[C@H]3CCC[C@@H](CCOP(=O)(Oc4ccccc4)Oc4ccccc4)C31OO2`, the pIC50 (as a rule, the IC50 on a negative log10 scale, so that one unit is a factor of ten) was 7.85.
